# Data: patent US20240165214A1 (University of Washington, published 2024)
# T1: ribonuclease B (RNase B), bovine (bovine, UniProt P61823 27-150, N-linked high-mannose (Man5) oligosaccharides; biotinylated with Sulfo-NHS-LC-Biotin)
# T1 sequence (looked up): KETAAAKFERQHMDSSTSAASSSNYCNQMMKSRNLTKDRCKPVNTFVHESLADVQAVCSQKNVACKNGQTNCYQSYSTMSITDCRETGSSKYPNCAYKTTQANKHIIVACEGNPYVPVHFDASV
# B1: FimH^FocH (other)
# chain: FACKTANGTAIPIGGGSANVYVNLAPVVNVGQNLVVDLSTQIFCHNDYPETITDYVTLQRGSAYGGVLSNFSGTVKYSGSSYPFPTTSETPRVVYNSRTDKPWPVALYLTPVSSAGGVAIKAGSLIAVLILRQTNNYNSDDFQFVWNIYANNDVVVPTGGCDVSARDVTVTLPDYPGSVPIPLTVRCDQTQSVSYTLSGSVADAGNSIFTNTASFSPAQGVGVQLTRNGTIIPANNTVSLGAVGTSAVSLGLTANYARTGGQVTAGNVQSIIGVTFVYQ
# notes: also called LD^A27V-PD^FocH
# Target: T1, ribonuclease B (RNase B), bovine
# Assay: BLI; fimbriae on RNase B probe in the presence of 4 µM Fab824; 1:1 model
binder,measurement,value
B1,Kd,66.6 nM
same,koff,0.00047 s⁻¹
same,kon,7100 M⁻¹ s⁻¹
